Compound potency records, mixed from different reports. Data source: NIAID ChemDB in PubChem.

All rows: target-level tests; organism: Hepatitis C virus; protein: Nonstructural protein 5B; read-out: IC50

ICn: concentration for n% inhibition.

SMILES	strain	read by	value
O=C(O)c1ccc(N2C(=O)C(=Cc3ccc(-c4cc5ccccc5s4)o3)SC2=S)cc1	-	-	≤1 µM
CNC(=O)c1c(-c2ccc(F)cc2)oc2cc(N3CCOCC3)c(OCc3nccs3)cc12	-	-	≤0.5 µM
CC(=O)c1ccc(CCC2(C3CCCC3)CC(=O)CC(=O)O2)cc1Cl	-	-	1–10 µM
O=C(O)c1ccc(N2C(=O)C(=Cc3ccc(C#Cc4ccccc4)o3)SC2=S)cc1	-	-	≤1 µM
COc1ccc(CCC2(C3CCCC3)CC(=O)C(C(=O)Cc3cc(C)no3)C(=O)O2)c(OC)c1	-	-	10–50 µM
O=C(O)c1ccc(N2C(=O)C(=Cc3ccc(-c4ccc(Cl)c(Cl)c4)o3)SC2=S)cc1	-	-	≤1 µM
CNC(=O)c1c(-c2ccc(F)cc2)oc2cc(N(C)S(C)(=O)=O)c(OCc3nsc(N(C)C4CC4)n3)cc12	-	-	≤0.5 µM
O=C(O)c1ccc(N2C(=O)/C(=C\c3ccc(-c4cc(C(F)(F)F)ccc4Cl)o3)SC2=S)cc1	-	-	≤1 µM
Cc1cc(SC2=C(O)CC(CCc3ccco3)(C(C)C)OC2=O)c(C(C)(C)C)cc1CO	-	-	1–10 µM
O=C(O)CCN1C(=O)C(=Cc2ccc(-c3ccco3)o2)SC1=S	-	-	≤1 µM
CNC(=O)c1c(-c2ccc(F)cc2)oc2cc(N(C)S(C)(=O)=O)c(OCc3cc(OC)cc(OC)c3)cc12	-	-	≤0.5 µM
CCCc1ccc(CCC2(C3CCCC3)CC(=O)CC(=O)O2)cc1	-	-	1–10 µM
CNC(=O)c1c(-c2ccc(F)cc2)oc2cc(-c3ncn[nH]3)c(OC)cc12	-	-	≤0.5 µM
COc1c(-c2ccc3cc(NS(C)(=O)=O)ccc3c2)cc(-n2ccc(=O)[nH]c2=O)cc1C(C)(C)C	GT 2b#2	nucleotide incorporation	16.1 µM
COc1cc(CCC2(C3CCCC3)CC(O)=CC(=O)O2)ccc1OCc1ccccc1	-	-	1–10 µM
CNC(=O)c1c(-c2ccc(F)cc2)oc2cc(N(C(C)c3nn[nH]n3)S(C)(=O)=O)c(OC(C)C)cc12	-	-	≤0.5 µM
O=C(Cc1ccccc1)C1C(=O)CC(CCc2cccc(Cl)c2)(C2CCCC2)OC1=O	-	-	10–50 µM
O=C(O)CN1C(=O)C(=Cc2ccc(-c3ccc(Cl)c(Cl)c3)s2)SC1=S	-	-	≤1 µM

An empty or dashed field is not shown. Neighbouring rows are from separate reports. a–b is a range or a potency band.